## Results of single-concentration screens

Measurements from “University of Dundee, Small-Polar-MMV Screening Library” (2021), ChEMBL document CHEMBL3988442.

Mtb glucose medium: 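Growth of Mycobacterium tuberculosis over 3 days (7H9 medium with glucose and tyloxapol); the read-out is not stated. Compounds at 50 µM. The record gives no direction; compounds that gave an IC50 in retests scored well above the rest, so higher reads as more growth inhibition. Size under these conditions: about 69,000 compounds, about 760 of them at 50% or above in at least one test.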
Mtb cholesterol medium: 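Whole-cell growth test on Mycobacterium tuberculosis, read after 4 days in a medium based on cholesterol and the lipid DPPC; the read-out is not stated. Tested at 50 µM. Direction is inferred from retests: higher values go with more growth inhibition. Size under these conditions: about 69,000 compounds, about 370 of them at 50% or above in at least one test.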

Each number is a percent effect as filed. The controls that fix the scale are not given in the record; negative values are as filed. Many other results are left out here, so strong results are more common than in the screen. Two or more numbers in one place are separate tests of the same structure; such repeats can differ widely. A dash means the value is not listed here; it may have been measured.

| # | structure | Mtb glucose medium | Mtb cholesterol medium |
|---|---|---|---|
| 1 | `OCC1CCCN1c1cc(N2CCN(c3ccccn3)CC2)ncn1` (stereo not shown) | -5.123 | - |
| 2 | `CCc1ccc(C(=O)O)cc1S(=O)(=O)Nc1ccc2c(c1)OCCO2` | 12.6 | 3.597 |
| 3 | `CCc1c(C)sc2ncnc(N3CC[C@@H](N4CCC(O)CC4)[C@H](O)C3)c12` | 13.15 | - |
| 4 | `CN(C)c1nc2c(c(N(C)C)n1)CCN(C(=O)CN1CCC(O)CC1)C2` | - | -11.77 |
| 5 | `CN(Cc1ccc(F)cc1F)CC(C)(CO)CO` | 19.02 | - |
| 6 | `COc1cc(OC)cc(-c2cccc3c2OC(CN)C3)c1` (stereo not shown) | 51.62 and 30.69 | - |
| 7 | `O=C(NCCNc1ccc(C(F)(F)F)cn1)c1ccoc1` | 31.87 | - |
| 8 | `CC(C)(C)CCS(=O)(=O)NCCc1csc(N2CCCC2)n1` | -6.695 | - |
| 9 | `Cc1nc(C)c2c(n1)CCN(Cc1ccsc1)CC2` | 3.662 and 26.6 | 15.99 and 28.71 |
| 10 | `O=C(CNC(=O)C1(c2ccc(F)cc2F)CCC1)Nc1ccccn1` | 15.32 and 3.834 | 13.03 |
| 11 | `Cc1ncc(-c2ccnc(N3CCCCCC3)n2)c(-c2cccnc2)n1` | -20.63 | - |
| 12 | `Cc1cnc(C(=O)N2CCCN(c3nc(C)cs3)CC2)cn1` | 9.398 | - |
| 13 | `Cc1nc(N)ncc1C(=O)N1CCCC(CCc2ccc(F)cc2)C1` (stereo not shown) | -0.4973 and -9.165 | 7.266 |
| 14 | `O=C1CCNc2ncc(-c3cccc(Cl)c3)cc2CN1C1CC1` | 56.97 | - |
| 15 | `CCOc1ccc(C(=O)NCc2ccnc(N3CCN(C)CC3)c2)cn1` | 6.504 and -1.057 | 3.359 |
| 16 | `O=C(c1ccn(COc2ccc(F)cc2)n1)N1CCCC1` | 29.82 | 34.62 |
| 17 | `CN1CCCN(C[C@H]2C[C@H](CO)CN(Cc3cccnc3N)C2)CC1` | - | -52.82 |
| 18 | `OCCN1CCN(Cc2coc(-c3cccc(Cl)c3)n2)CC1` | -17.2 | - |
| 19 | `CC(C)n1ccnc1C1CCN(Cc2ccc(Cl)c(F)c2)CC1` | 2.397 | - |
| 20 | `O=C(NCc1cnn2cccnc12)c1cccc(CC2CCNCC2)c1` | 79.2 and 69.56 | 53.27 |
| 21 | `CCc1noc(-c2ccc(SCC(=O)O)nc2)n1` | -15.07 | - |
| 22 | `OCc1ccc(CN(CCCn2ccnc2)Cc2cccnc2)o1` | 20.79 | - |
| 23 | `c1ccc(NCc2ccsc2)c(Cn2cncn2)c1` | 24.11 | 4.004 |
| 24 | `CN1CCC(N2Cc3nc(N)ncc3C2=O)CC1` | 37.74 | -8.138 |
| 25 | `COC(=O)c1ccc(CNC(C)(C)c2ccccc2OC)o1` | -0.1996 | -5.182 |
| 26 | `Cc1sc(CN)nc1-c1ccc(Cl)cc1Cl` | 17.12 | 10.47 |
| 27 | `COc1ccc(C(C)NS(=O)(=O)c2ccc3c(c2)CCC(=O)N3)cc1F` (stereo not shown) | -0.2548 and -5.426 | -22.28 |
| 28 | `COc1ccc(C(C)=O)cc1CN1CCn2cccc2C1C` (stereo not shown) | 19.53 | - |
| 29 | `COCCCN(C)C(=O)Cn1cccc(OC)c1=O` | - | -4.166 |
| 30 | `CCNC(=O)NC(=O)CNC(C)(C)c1ccc2c(c1)OCO2` | -2.39 and -6.064 | - |
| 31 | `CCNc1cc2c(nn1)CCN(C(=O)c1cccc3c1OCCO3)C2` | 14.63 | - |
| 32 | `O=C(O)c1cc(-c2ccoc2)cc(S(=O)(=O)NC2CC2)c1` | 66.57 | - |
| 33 | `COCc1ncc(CN2CCC(Oc3ccccc3OC)CC2)cn1` | -32.68 | - |
| 34 | `CSc1cccc(CN(C)C(=O)CN2CCN(c3ncccn3)CC2)c1` | 11.02 | - |
| 35 | `CN1CCN(c2cc(CNC(=O)c3ccsc3)ccn2)CC1` | 19.78 | 6.357 |
| 36 | `O=C(c1cc(C2CC2)[nH]n1)N1CCN(Cc2ccccc2)CC1` | 51 and 31.19 | 17.31 |
| 37 | `CCSc1ncc(CN2CC[C@@](O)(COC)C(C)(C)C2)cn1` | - | 18.47 |
| 38 | `Cc1c(CN2CCc3[nH]cnc3C2C2CC2)[nH]c2ccc(F)cc12` (stereo not shown) | 18.13 and 42.44 | - |
| 39 | `Cc1ccc(CN2CCC3(CCCN(S(C)(=O)=O)C3)C2)o1` (stereo not shown) | 11.93 | - |
| 40 | `O=C(NCCn1ccnc1)c1csc2c1CCCC2` | - | -23.38 |
| 41 | `CCCc1nnc(NC2CCN(CCO)CC2)o1` | 7.314 | - |
| 42 | `CNC(=O)CN(C)c1cncc(OCC(C)C)n1` | -8.179 and 6.516 | 1.899 |

Some entries from above, unchanged:

| structure | Mtb glucose medium | Mtb cholesterol medium |
|---|---|---|
| `Cc1ccc(CN2CCC3(CCCN(S(C)(=O)=O)C3)C2)o1` (stereo not shown) | 11.93 | - |
| `CCc1ccc(C(=O)O)cc1S(=O)(=O)Nc1ccc2c(c1)OCCO2` | 12.6 | 3.597 |
| `OCC1CCCN1c1cc(N2CCN(c3ccccn3)CC2)ncn1` (stereo not shown) | -5.123 | - |
| `CN1CCC(N2Cc3nc(N)ncc3C2=O)CC1` | 37.74 | -8.138 |
| `CN(C)c1nc2c(c(N(C)C)n1)CCN(C(=O)CN1CCC(O)CC1)C2` | - | -11.77 |